# Test results: publication PMC8593223, “Rapid Identification of Secondary Structure and Binding Site Residues in an Intrinsically Disordered Protein Segment” (2021)
# B1: unnamed (protein)
# parent chain 1: not shown
# parent chain 2: MKTAISLPDETFDRVSRRASELGMSRSEFFTKAAQRYLHELDAQLLTGQIDRALESIHGTDEAEALAVANAYRVLETMDDEW
# Biological target: partner chain of the complex shown
# Assay: yeast surface display titration, flow cytometry (FACS)
# Settings: MazF6 about 55 nM (read from x axis); highest concentration shown for L41R; parent: 9.9e+03
binder,measurement,value
B1,response,1600 MFI
